{"source": "paper doi:10.1101/2024.12.23.630153v1", "about": "(biorxiv, 2024)", "key": {"[1]": {"molecular_target": "T1, OXA-57 (Burkholderia pseudomallei, UniProt Q6ZZZ2)", "experiment": "biochemical", "conditions": "pIC50"}, "[2]": {"molecular_target": "T1, OXA-57", "experiment": "biochemical"}, "[3]": {"test_system": "CC(=O)OCC1=C(C(=O)O)N2C(=O)[C@@H](NC(=O)Cc3cccs3)[C@H]2SC1", "experiment": "purified protein"}, "[4]": {"test_system": "C[C@@H](O)[C@H]1C(=O)N2C(C(=O)O)=C(S[C@@H]3CN[C@H](C(=O)N(C)C)C3)[C@H](C)[C@H]12", "experiment": "purified protein"}, "[5]": {"test_system": "CC1(C)S[C@@H]2[C@H](NC(=O)[C@H](N)c3ccccc3)C(=O)N2[C@H]1C(=O)O", "experiment": "purified protein"}, "[6]": {"test_system": "C[C@@H](O)[C@H]1C(=O)N2C(C(=O)O)=C(SCCN=CN)C[C@H]12", "experiment": "purified protein"}}, "note": "“And” between values parts separate entries of the source, which are not always exact repeats. Identical values can stand only once. Like-named read-outs stand apart in the source and are kept apart here.", "data": [{"compound": "NC(=O)[C@@H]1CC[C@@H]2CN1C(=O)N2OS(=O)(=O)O", "note": "[Avibactam]", "values": [{"measurement": "IC50", "setting": "[1]", "value": "20 µM and 63.1 µM"}, {"measurement": "IC50", "setting": "[2]", "value": 13.2, "unit": "µM"}]}, {"compound": "OXA-57 (Burkholderia pseudomallei)", "values": [{"measurement": "Km", "setting": "[3]", "value": "238 ± 44", "unit": "µM"}, {"measurement": "Km", "setting": "[4]", "value": "21 ± 7", "unit": "µM"}, {"measurement": "Km", "setting": "[5]", "value": "131 ± 32", "unit": "µM"}, {"measurement": "Km", "setting": "[6]", "value": "51 ± 12", "unit": "µM"}]}]}
